Source: article PMC9215227, “SARS-CoV-2 N Protein Antagonizes Stress Granule Assembly and IFN Production by Interacting with G3BPs to Facilitate Viral Replication” (2022)

Legend:
[1] = molecular target: 6×His-Flag-G3BP1, not stated, Q13283 1-466; assay: SPR
[2] = molecular target: T1, 6×His-Flag-G3BP2, not stated, Q9UN86 1-482; assay: SPR
T1 sequence: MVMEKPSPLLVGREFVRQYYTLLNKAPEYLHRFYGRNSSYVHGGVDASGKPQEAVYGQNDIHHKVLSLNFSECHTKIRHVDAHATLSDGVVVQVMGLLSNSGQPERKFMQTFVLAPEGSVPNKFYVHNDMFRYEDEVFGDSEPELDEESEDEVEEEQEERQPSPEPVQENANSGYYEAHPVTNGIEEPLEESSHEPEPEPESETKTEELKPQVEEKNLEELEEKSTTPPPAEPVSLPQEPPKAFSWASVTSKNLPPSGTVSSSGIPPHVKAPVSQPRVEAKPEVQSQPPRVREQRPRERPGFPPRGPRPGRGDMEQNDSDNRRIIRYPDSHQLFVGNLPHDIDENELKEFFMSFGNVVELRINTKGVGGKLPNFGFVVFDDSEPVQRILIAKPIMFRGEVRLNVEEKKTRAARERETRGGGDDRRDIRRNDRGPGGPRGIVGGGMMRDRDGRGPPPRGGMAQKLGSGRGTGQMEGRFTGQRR

Substance: NP of SARS-CoV (catalog no. 40143-V08B, Sino Biological)
- Kd [1]: 0.0257 µM
- Kd [2]: 0.0385 µM
